Primary screen of a compound library

The filed quantity is “Percent Effect” (%).
The controls that fix the scale are not given in the record; negative values are as filed.
This is part of a subset picked to be rich in strong results.
A dash means the value is not listed here; it may have been measured.

Mtb cholesterol medium: 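Phenotypic screen: M. tuberculosis growth, cholesterol and DPPC medium, 4 days; the read-out is not stated. Concentration: 500 µM. The record gives no direction; compounds that gave an IC50 in retests scored well above the rest, so higher reads as more growth inhibition. Size under these conditions: about 18,000 compounds, about 900 of them at 50% or above in at least one test.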
Mtb glucose medium: 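Growth of Mycobacterium tuberculosis over 3 days (7H9 medium with glucose and tyloxapol); the read-out is not stated. Concentration: 500 µM. Higher reads as more growth inhibition (inferred: compounds with an IC50 in retests scored well above the rest). Size under these conditions: about 18,000 compounds, about 1,400 of them at 50% or above in at least one test.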

| structure | Mtb cholesterol medium | Mtb glucose medium |
|---|---|---|
| `CS(=O)(=O)CC1(CNCc2cccs2)CC1` | - | 7.783 |
| `Cn1cc(C2CSCCN2Cc2cncs2)cn1` (stereo unspecified) | - | 11.02 |
| `COc1ccc(Cl)c(S(=O)(=O)NC2CNC2)c1` | - | 10.44 |
| `Cc1cc(C(=O)Nc2ccc3c(c2)CCN3)n(C)n1` | -3.6 | 38.65 |
| `COc1cccc2c1CCC2N` (stereo unspecified) | - | 57.51 |
| `COCC1CCCN(CCN)C1` (stereo unspecified) | - | -1.196 |
| `CNC(=O)CN(C)C(=O)CCc1ccc(Br)cc1F` | 70.28 | 75.82 |
| `NCCCNC(=O)c1ccc(O)cc1` | - | 0.3517 |
| `NCCc1nccn1Cc1ccccc1` | - | 36.4 |
| `CCc1nc(COC2CCNCC2)no1` | -0.1058 | - |
| `Cn1c(C(=O)N2CCCS2(=O)=O)cc2ccccc21` | 11.95 | - |
| `Cc1ccnc(N2CCNCC2)c1` | 33.61 | - |
| `O=C1CC(C(=O)Nc2cccnc2)c2ccccc2N1` (stereo unspecified) | - | 8.08 |
| `CNCC1CCCN1S(=O)(=O)c1ccccc1` (stereo unspecified) | - | 8.643 |
| `Cc1ccccc1CSCC(=O)N[C@@H]1CCNC[C@H]1O` | -5.225 | - |
| `Cn1ncnc1CN1CCCC1C(=O)N1CCSCC1` (stereo unspecified) | 6.352 | - |
| `O=C(NC1CCN(C2CCCC2)CC1)c1cnc[nH]1` | 0.7842 | - |
| `NCCS(=O)(=O)c1cccs1` | - | 13.72 |
| `CS(=O)(=O)N1CCCC(N)C1` (stereo unspecified) | - | 1.223 |
| `Cc1nn(C)c(C)c1S(=O)(=O)NC(CN)CC(C)C` (stereo unspecified) | - | -3.544 |
| `O=S1(=O)CCCN(Cc2ccc(Br)c(F)c2)CC1` | 77.27 | 73.18 |
| `CCC(CO)Nc1ncnc2c1c(Br)nn2C` (stereo unspecified) | - | 25.65 |
| `COCCN(CCOC)Cc1cc(-c2ccco2)on1` | - | 46.03 |
| `COCCN(CC(=O)NCc1ccco1)C(C)(C)CO` | -4.597 | - |
| `Cc1cccn(Cc2nc(-c3ccccn3)no2)c1=O` | - | 4.493 |
| `Cn1cc(C2CSCCN2Cc2ccon2)cn1` (stereo unspecified) | 0.2415 | - |
| `CCN(CCn1cccn1)C(=O)c1c(O)cccc1O` | 2.488 | - |
| `CCN1CCCC1CNC(=O)c1ccc(C)o1` (stereo unspecified) | - | 25.51 |
| `O=C(Cn1ccc(C(F)(F)F)n1)NCc1ccco1` | 38.94 | 53.4 |
| `O=C(CCCc1cccs1)NC1(CCO)CCOCC1` | - | 2.801 |
| `CC(C)NC(=O)NC1CCNC1` (stereo unspecified) | 7.25 | - |
| `c1coc(C2CCCN2)c1` (stereo unspecified) | - | 44.62 |
| `CN(C)c1cc(CNC(=O)c2nccnc2N)ccn1` | -16.22 | -9.909 |
| `Cc1ccc(-c2nnc(SCCC(N)=O)n2C)cc1` | -10.59 | - |
| `C=C(Br)CNC(=O)c1cccc(CN2CCCC2)c1` | - | 0.886 |
| `CCC(O)COc1cc(C)ccc1C(N)=O` (stereo unspecified) | - | 12.48 |
| `N#Cc1cccnc1N1CCCNCC1` | - | 53.09 |
| `CNCC(=O)Nc1cc(Cl)c(OCCOC)c(Cl)c1` | - | 54.01 |
| `CCC(C)c1cc(C(=O)Nc2ncccc2O)on1` (stereo unspecified) | 104.6 | 76.68 |
| `COc1cc(CCC(=O)Nc2nnc[nH]2)cc(OC)c1` | - | -3.659 |
| `COc1ccc(S(=O)(=O)N2CCCN(C)CC2)cc1` | - | 30.72 |
| `CCc1nncn1C1CCNCC1` | - | -8.966 |
| `CN(Cc1nc(C2CCOC2)no1)C1CCNCC1` (stereo unspecified) | - | 8.795 |
| `Cc1ccccc1NC(=O)N1CCN(CC(N)=O)CC1` | 2.988 | - |
| `CCCNC(=O)C(C)NC(=O)c1ccoc1` (stereo unspecified) | -8.208 | - |
| `O=C(CCS(=O)(=O)c1ccccc1)Nc1ccccn1` | - | -0.6823 |

3 of the entries, repeated:

CNC(=O)CN(C)C(=O)CCc1ccc(Br)cc1F gave Mtb cholesterol medium: 70.28%; Mtb glucose medium: 75.82%.
CCc1nncn1C1CCNCC1 gave Mtb glucose medium: -8.966%.
CCN(CCn1cccn1)C(=O)c1c(O)cccc1O gave Mtb cholesterol medium: 2.488%.

Measurements from “University of Dundee, Small-Polar-MMV Screening Library” (2021), ChEMBL document CHEMBL3988442.